# Species on record: Rattus norvegicus
# Experiment: Ratio of Kd for rat brain voltage-gated sodium channel Nav1.2 F385C mutant to Kd for rat brain voltage-gated sodium channel Nav1.2
smiles,measurement,value
N=C(N)NCCC[C@@H]1NC(=O)[C@H](CO)NC(=O)[C@H](Cc2cnc[nH]2)NC(=O)[C@H](CC(=O)O)NC(=O)[C@H](CCCNC(=N)N)NC(=O)[C@@H]2CSSC[C@H](N)C(=O)N[C@H]3CSSC[C@H](NC1=O)C(=O)N[C@H](C(N)=O)CSSC[C@H](NC(=O)[C@H](CC(N)=O)NC3=O)C(=O)N[C@@H](CO)C(=O)N[C@@H](CO)C(=O)N[C@@H](CCCCN)C(=O)N[C@@H](Cc1c[nH]c3ccccc13)C(=O)N2,Ratio,2
